Data reported in PMC3476531, “Synergy of Peptide and Sugar in O-GlcNAcase Substrate Recognition” (Chemistry & Biology, 2012).

Target: CpOGA (Clostridium perfringens, UniProt Q0TR53)
Experiment: CpOGA glycopeptide hydrolysis, substrate competition assay with 4MU-GlcNAc reporter
Details: read-out: Michaelis constant (KM) of glycopeptide substrate for CpOGA; competition with 4MU-GlcNAc reporter substrate; 37°C, 50 mM citrate-phosphate buffer pH 7.4, 0.1 mg/ml BSA; triplicate; ± error of curve-fit

SMILES | Km [µM]
CC(=O)N[C@H]1[C@H](OC[C@H](NC(=O)[C@H](CC(=O)O)NC(=O)[C@@H](NC(C)=O)C(C)C)C(=O)N[C@H](C(=O)N2CCC[C@H]2C(=O)NCC(N)=O)[C@@H](C)O)O[C@H](CO)[C@@H](O)[C@@H]1O | 48
CC(=O)N[C@H]1[C@H](OC[C@H](NC(=O)[C@H](Cc2ccc(O)cc2)NC(=O)[C@@H]2CCCN2C(=O)[C@@H](NC(C)=O)C(C)C)C(=O)N[C@@H](CO)C(=O)N[C@@H](C)C(=O)N[C@@H](CCC(N)=O)C(N)=O)O[C@H](CO)[C@@H](O)[C@@H]1O | 230

Structures were worked out from names or drawings and are uncertain.
